Test results published in patent publication US11674950B2, “Methods determining and treating cellular resistance to ADP-rtbosylating toxin” (priority 2017, dated 2023).

Test system: DPH1
Experiment: RNA-sequencing of CD123+ sorted blasts before and after SL-401
Format: in vivo, human
Conditions: 2 AML patients, pre & post 2 cycles

B1: tagraxofusp (protein)
chain: MGADDVVDSSKSFVMENFSSYHGTKPGYVDSIQKGIQKPKSGTQGNYDDDWKGFYSTDNKYDAAGYSVDNENPLSGKAGGVVKVTYPGLTKVLALKVDNAETIKKELGLSLTEPLMEQVGTEEFIKRFGDGASRVVLSLPFAEGSSSVEYINNWEQAKALSVELEINFETRGKRGQDAMYEYMAQACAGNRVRRSVGSSLSCINLDWDVIRDKTKTKIESLKEHGPIKNKVISESPNKTVSEEKAKQYLEEFHQTALEHPELSELKTVTGTNPVFAGANYAAWAVNVAQVIDSETADNLEKTTAALSILPGIGSVMGIADGAVHHNTEEIVAQSIALSSLMVAQAIPLVGELVDIGFAAYNFVESIINLFQVVHNSYNRPAYSPGHKTRPHMAPMTQTTSLKTSWVNCSNMIDEIITHLKQPPLPLLDFNNLNGEDQDILMENNLRRPNLEAFNRAVKSLQNASAIESILKNLLPCLPLATAAPTRHPIHIKDGDWNEFRRKLTFYLKTLENAQAQQTTLSLAW
  change of DPH1 after exposure (mean): −2.1 fold

The amount applied is not stated for every result.
